Patent US4877782A, “Zinc ceftiofur complexes” (The Upjohn Company, priority 1988, dated 1989)

Experiment: dispersibility in water, organic solvents and vegetable oils
Assay type: physicochemical
Conditions: granular powders, in words

## zinc ceftiofur sodium complex [Compound I]
  dispersibility in water and in common pharmaceutical organic solvents and vegetable oils: readily dispersible in water
